Results on 35 compounds are retold here after ChEMBL document CHEMBL4480367 (Medchemcomm, 2019).

One series has as its system Influenza A virus. As to the kind of experiment: Antiviral activity against amantadine-sensitive Influenza A virus (A/chicken/Hubei/327/2004(H5N1)) infected in MDCK cells after 40 mins by crystal violet staining-based plaque reduction assay. On the technique in general: In a plaque reduction assay, fewer plaques than in the control indicate reduced infectivity or spread.

Series [1] is described as follows: Selectivity index, ratio of CC50 for MDCK cells to EC50 for amantadine-sensitive Influenza A virus (A/chicken/Hubei/327/2004(H5N1)). The following applies: dog.

Broadly, the EC50 is the concentration at which the effect is half-maximal. Lower therefore signals a more potent agent. As for `O=[N+]([O-])c1ccc(S(=O)(=O)NCc2cc3ccccc3s2)cc1`, a half-maximal response in the series on Influenza A virus (EC50) required 50 µM. In addition, the Ratio CC50/EC50 in series [1] was over 3.8. On to `Cc1ccc(S(=O)(=O)NCc2cc3ccccc3s2)cc1`, for which the EC50 with Influenza A virus turned out to be 42 µM. For the same compound, the Ratio CC50/EC50 in series [1] is over 5. For `O=S(=O)(NCc1csc2ccccc12)c1ccc(Br)cc1` the same measures were 7.22 µM and 12.1. In the same order, the values of `O=[N+]([O-])c1ccc(S(=O)(=O)NCc2ccsc2)cc1` are 1.47 µM and 94.4.

In the series with Influenza A virus, `N#Cc1ccc(S(=O)(=O)NCc2cc3ccccc3s2)cc1` gave an EC50 of over 100 µM. In the series on Influenza A virus, `O=S(=O)(NCc1csc2ccccc12)c1ccc(Cl)cc1` displayed an EC50 of 1.98 µM. Moreover, the Ratio CC50/EC50 in series [1] came out at 35.1. In the same order, the values of `Cc1cc(CNS(=O)(=O)c2ccc([N+](=O)[O-])cc2)c(C)s1` are 1.29 µM and over 158. For `Cc1ccc(S(=O)(=O)NCc2csc3ccccc23)cc1` the same measures were 10.5 µM and over 20. In the series with Influenza A virus, `O=S(=O)(NCc1cc2ccccc2s1)c1ccc(F)cc1` registered an EC50 of over 100 µM. `O=S(=O)(NCc1cc2ccccc2s1)c1ccc(Br)cc1` yielded an EC50 in the series with Influenza A virus of 40.7 µM. In addition, the Ratio CC50/EC50 in series [1] is over 4.3. The compound `Cc1cc(CNS(=O)(=O)c2ccc(Cl)cc2)c(C)o1` gave an EC50 in the series with Influenza A virus of 1.37 µM. For the same compound, in series [1], the Ratio CC50/EC50 was determined as 40.7. In the same order, the values of `Cc1cc(CNS(=O)(=O)c2ccc(Cl)cc2)c(C)s1` are 0.7 µM and 75.5. For `O=[N+]([O-])c1ccc(S(=O)(=O)NCc2ccc(Cl)s2)cc1` the same measures were 70 µM and 1.8. For `O=S(=O)(NCc1csc2ccccc12)c1ccccc1F`, the EC50 in the series on Influenza A virus is over 100 µM. Consider `Cc1cc(CNS(=O)(=O)c2ccc(F)cc2)c(C)o1`, for which the EC50 in the series on Influenza A virus was 8.08 µM. In series [1], the Ratio CC50/EC50 was 17.1. As to `O=[N+]([O-])c1ccc(S(=O)(=O)NCc2cccs2)cc1`, the EC50 in the series on Influenza A virus is 1.91 µM. For the same compound, the Ratio CC50/EC50 in series [1] worked out at 69.8. Turning to `O=S(=O)(NCc1cc2ccccc2s1)c1ccc(Cl)cc1`, the EC50 in the series on Influenza A virus is over 100 µM. In turn, `Cc1cc(CNS(=O)(=O)c2ccc(C#N)cc2)c(C)s1` gave an EC50 in the series with Influenza A virus of 0.62 µM. Moreover, in series [1], the Ratio CC50/EC50 is over 351. `O=S(=O)(NCc1csc2ccccc12)c1cccc(F)c1`: in the series with Influenza A virus, the EC50 was over 100 µM. `O=[N+]([O-])c1ccc(S(=O)(=O)NCc2csc3ccccc23)cc1` displayed an EC50 with Influenza A virus of 1.38 µM. The Ratio CC50/EC50 in series [1] was over 139.

Compound `CCOC(=O)C1=C[C@@H](OC(CC)CC)[C@H](NC(C)=O)[C@@H](N)C1.O=P(O)(O)O` [OSELTAMIVIR PHOSPHATE] displayed an EC50 with Influenza A virus of 0.39 µM.

For the compound `Cc1cc(CNS(=O)(=O)c2ccc(F)cc2)c(C)s1`, the EC50 in the series with Influenza A virus was over 100 µM. Regarding `O=S(=O)(NCc1csc2ccccc12)c1ccc(F)cc1`, the EC50 in the series on Influenza A virus was 3.42 µM. Also, the Ratio CC50/EC50 in series [1] is 28.8. For `Cc1cc(CNS(=O)(=O)c2ccc(Br)cc2)c(C)s1` the same measures were 0.47 µM and 120. In the same order, the values of `Cc1cc(CNS(=O)(=O)c2ccc(Br)cc2)c(C)o1` are 1.8 µM and 16.5. With `N#Cc1ccc(S(=O)(=O)NCc2csc3ccccc23)cc1`, the EC50 with Influenza A virus came out at 20.3 µM. Besides, in series [1], the Ratio CC50/EC50 is 6.

Compound `NC12CC3CC(CC(C3)C1)C2` [AMANTADINE] showed an EC50 in the series on Influenza A virus of 0.43 µM. In the series with Influenza A virus, `O=S(=O)(NCc1csc2ccccc12)c1ccc(C(F)(F)F)cc1` returned an EC50 of 38.6 µM. Further, in series [1], the Ratio CC50/EC50 is 2.5. In the same order, the values of `O=S(=O)(NCc1cc2ccccc2s1)c1ccc(C(F)(F)F)cc1` are 44.8 µM and over 4.

For the compound `O=S(=O)(NCc1cc2ccccc2s1)c1ccccc1F`, the EC50 with Influenza A virus is over 100 µM. Turning to `CC(=O)c1ccc(S(=O)(=O)NCc2csc3ccccc23)cc1`, in the series with Influenza A virus, the EC50 was 12 µM. Also, the Ratio CC50/EC50 in series [1] is over 16.

Compound `O=[N+]([O-])c1ccc(S(=O)(=O)NCc2ccoc2)cc1` had an EC50 in the series on Influenza A virus of 47.2 µM. In series [1], the Ratio CC50/EC50 was over 5.

In turn, `Cc1cc(CNS(=O)(=O)c2ccc(C#N)cc2)c(C)o1` came in with an EC50 in the series on Influenza A virus of 4.03 µM. For the same compound, the Ratio CC50/EC50 in series [1] worked out at 26.1.

For the compound `Cc1cc(CNS(=O)(=O)c2ccc([N+](=O)[O-])cc2)c(C)o1`, the EC50 in the series with Influenza A virus is 1.06 µM. Also, in series [1], the Ratio CC50/EC50 was over 144. In the series on Influenza A virus, `O=S(=O)(NCc1cc2ccccc2s1)c1cccc(F)c1` registered an EC50 of over 100 µM.
